Like-named read-outs stand apart in the source and are kept apart here. The structures given here were assigned with low confidence; some may be wrong.

Chains of the proteins cited; added tags and fusions are not shown. Lines headed by an entry give the natural chain unless they say otherwise; changes in a name come on top. Residues count along the entry.
UniProt P26663, 1027-1206 limits assumed: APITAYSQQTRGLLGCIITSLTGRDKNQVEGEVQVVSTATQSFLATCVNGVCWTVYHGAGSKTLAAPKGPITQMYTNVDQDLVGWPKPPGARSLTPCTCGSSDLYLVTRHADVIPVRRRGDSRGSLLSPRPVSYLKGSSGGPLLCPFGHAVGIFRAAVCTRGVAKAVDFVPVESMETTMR

The target in this assay is HCV NS3 protease (UniProt P26663). The method, then: Recombinant HCV NS3 Protease/NS4A Cofactor Peptide Radiometric Assay
The enzyme was cloned, expressed and prepared according to the protocol described in Example 36. The enzyme was stored at −80° C., thawed on ice and diluted just prior to use in the assay buffer containing the NS4A cofactor peptide.
The substrate used for the NS3 protease/NS4A cofactor peptide radiometric assay, DDIVPC-SMSYTW, is cleaved between the cysteine and the serine residues by the enzyme. The sequence DDIVPC-SMSYTW corresponds to the NS5A/NS5B natural cleavage site in which the cysteine residue in P2 has been substituted for a proline. The peptide substrate DDIVPC-SMSYTW and the tracer biotin-DDIVPC-SMS[^125I-Y]TW are incubated with the recombinant NS3 protease and the NS4A peptide cofactor KKGSVVIVGRIILSGRK (molar ratio enzyme:cofactor 1:100) in the absence or presence of inhibitors. The separation of substrate from products is performed by adding avidin-coated agarose beads to the assay mixture followed by filtration. The amount of SMS[^125I-Y]TW product found in the filtrate allows for the calculation of the percentage of substrate conversion and of the percentage of inhibition.
The enzymatic reaction was initiated by the addition of the enzyme/NS4A peptide solution and the assay mixture was incubated for 40 min at 23° C. under gentle agitation. Ten (10) μL of 0.5N NaOH were added and 10 μL 1 M MES, pH 5.8 were added to quench the enzymatic reaction. […]
The NS2-NS5B-3′ non coding region was cloned by RT-PCR into the pCR®3 vector (Invitrogen) using RNA extracted from the serum of an HCV genotype 1b infected individual (provided by Dr. Bernard Willems, Hôpital St-Luc, Montréal, Québec, Canada). […] Fluorescence of the N-terminal product was monitored on a Perkin-Elmer LS-50B fluorometer equipped with a 96-well plate reader (excitation wavelength: 325 nm; emission wavelength: 423 nm). […]

For the setting “Table 6”, `C=CC1CC1(NC(=O)C1CC(Oc2cc(N3CCN(C)CC3)nc3ccccc23)CN1C(=O)C(NC(=O)OC(C)(C)C)C(C)(C)C)C(=O)O` (stereo not drawn) displayed an IC50 of 0.72 µM. Still for that read-out and setting: next, `C=CC1CC1(NC(=O)C1CC(Oc2cc(CN(C)c3ccccc3)nc3ccccc23)CN1C(=O)C(NC(=O)OC(C)(C)C)C(C)(C)C)C(=O)O` (stereo not drawn): 3 µM. The compound `C=CC1CC1(NC(=O)C1CC(Oc2cc(-c3ccccc3)nc3cc(OC)ccc23)CN1C(=O)C(NC(=O)CC(C)(C)C)C(C)(C)C)C(=O)O` (stereo not drawn) registered an IC50 (Table 8) of 0.12 µM.

Values taken from patent US6534523B1, “Hepatitis C inhibitor tri-peptides” (Boehringer Ingelheim (Canada) Ltd., priority 1998, dated 2003).
